The source of these data is ChEMBL document CHEMBL4811225 (J Med Chem, 2021).

Amino acid sequences for entries named in this document (tags omitted).
UniProt P30926, whole entry, looked up: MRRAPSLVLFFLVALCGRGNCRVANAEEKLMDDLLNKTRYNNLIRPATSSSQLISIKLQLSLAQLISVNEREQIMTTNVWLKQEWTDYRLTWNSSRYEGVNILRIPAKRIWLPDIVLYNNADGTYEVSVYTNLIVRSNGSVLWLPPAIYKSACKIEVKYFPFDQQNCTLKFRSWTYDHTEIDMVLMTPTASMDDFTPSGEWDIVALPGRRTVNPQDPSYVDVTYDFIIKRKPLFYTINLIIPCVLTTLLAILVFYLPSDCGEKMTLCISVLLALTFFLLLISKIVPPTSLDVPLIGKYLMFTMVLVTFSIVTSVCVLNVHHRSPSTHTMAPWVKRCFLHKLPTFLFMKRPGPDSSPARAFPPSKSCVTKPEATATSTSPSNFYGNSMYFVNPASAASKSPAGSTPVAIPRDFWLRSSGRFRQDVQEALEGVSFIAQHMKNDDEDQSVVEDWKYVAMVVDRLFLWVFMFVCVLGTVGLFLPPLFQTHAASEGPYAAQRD
UniProt P32297, whole entry, looked up: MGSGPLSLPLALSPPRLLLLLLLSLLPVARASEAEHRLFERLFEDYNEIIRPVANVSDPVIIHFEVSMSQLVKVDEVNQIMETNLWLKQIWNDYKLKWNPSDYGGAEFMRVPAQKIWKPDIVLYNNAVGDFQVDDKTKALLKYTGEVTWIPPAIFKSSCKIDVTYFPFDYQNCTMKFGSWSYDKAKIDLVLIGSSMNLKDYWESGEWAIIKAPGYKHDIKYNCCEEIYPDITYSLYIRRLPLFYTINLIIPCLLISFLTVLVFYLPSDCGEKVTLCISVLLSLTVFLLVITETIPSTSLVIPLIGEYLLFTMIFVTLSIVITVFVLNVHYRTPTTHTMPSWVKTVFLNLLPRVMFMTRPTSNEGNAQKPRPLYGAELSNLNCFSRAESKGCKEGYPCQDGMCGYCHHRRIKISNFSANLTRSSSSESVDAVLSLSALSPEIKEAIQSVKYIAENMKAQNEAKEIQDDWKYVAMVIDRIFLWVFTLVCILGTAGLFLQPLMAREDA
UniProt Q15825, whole entry, looked up: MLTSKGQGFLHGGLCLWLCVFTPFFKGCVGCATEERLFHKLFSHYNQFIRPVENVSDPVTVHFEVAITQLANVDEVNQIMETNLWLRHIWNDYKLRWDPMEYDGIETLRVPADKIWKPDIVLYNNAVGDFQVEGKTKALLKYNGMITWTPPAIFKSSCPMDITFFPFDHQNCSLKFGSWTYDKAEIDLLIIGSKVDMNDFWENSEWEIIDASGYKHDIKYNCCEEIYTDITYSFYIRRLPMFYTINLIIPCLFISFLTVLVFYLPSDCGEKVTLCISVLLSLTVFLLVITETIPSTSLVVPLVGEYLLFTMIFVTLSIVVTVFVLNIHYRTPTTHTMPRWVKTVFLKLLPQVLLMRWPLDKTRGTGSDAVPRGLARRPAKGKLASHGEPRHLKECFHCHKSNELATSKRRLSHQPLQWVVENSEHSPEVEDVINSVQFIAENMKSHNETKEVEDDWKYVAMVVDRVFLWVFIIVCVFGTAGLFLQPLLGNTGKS
UniProt P04757, whole entry, looked up: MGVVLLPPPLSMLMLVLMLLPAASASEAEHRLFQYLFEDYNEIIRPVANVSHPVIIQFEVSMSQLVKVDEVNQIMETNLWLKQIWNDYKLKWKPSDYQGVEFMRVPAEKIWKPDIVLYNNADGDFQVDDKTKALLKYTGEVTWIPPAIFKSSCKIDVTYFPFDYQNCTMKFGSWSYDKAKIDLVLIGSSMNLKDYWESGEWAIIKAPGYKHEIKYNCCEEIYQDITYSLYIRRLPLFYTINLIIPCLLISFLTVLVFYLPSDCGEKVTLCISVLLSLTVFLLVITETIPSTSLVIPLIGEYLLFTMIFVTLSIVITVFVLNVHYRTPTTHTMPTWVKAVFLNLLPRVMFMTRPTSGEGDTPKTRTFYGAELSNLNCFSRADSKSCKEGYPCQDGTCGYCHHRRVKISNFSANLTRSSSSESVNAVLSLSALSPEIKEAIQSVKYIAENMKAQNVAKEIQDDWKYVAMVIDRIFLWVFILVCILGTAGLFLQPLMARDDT
UniProt P12392, whole entry, looked up: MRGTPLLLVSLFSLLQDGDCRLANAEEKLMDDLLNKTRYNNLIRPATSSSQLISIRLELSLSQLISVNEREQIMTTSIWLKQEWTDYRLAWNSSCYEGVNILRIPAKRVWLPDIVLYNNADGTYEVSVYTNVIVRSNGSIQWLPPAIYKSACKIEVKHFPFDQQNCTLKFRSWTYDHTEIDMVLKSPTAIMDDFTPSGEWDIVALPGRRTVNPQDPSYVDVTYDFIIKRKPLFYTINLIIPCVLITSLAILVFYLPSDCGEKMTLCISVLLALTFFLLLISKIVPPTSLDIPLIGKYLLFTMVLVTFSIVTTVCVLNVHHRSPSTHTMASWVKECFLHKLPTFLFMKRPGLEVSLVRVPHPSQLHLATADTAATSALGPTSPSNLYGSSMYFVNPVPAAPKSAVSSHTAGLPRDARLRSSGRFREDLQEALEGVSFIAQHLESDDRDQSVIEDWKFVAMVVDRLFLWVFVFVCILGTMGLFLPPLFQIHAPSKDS
UniProt P43143, whole entry, looked up: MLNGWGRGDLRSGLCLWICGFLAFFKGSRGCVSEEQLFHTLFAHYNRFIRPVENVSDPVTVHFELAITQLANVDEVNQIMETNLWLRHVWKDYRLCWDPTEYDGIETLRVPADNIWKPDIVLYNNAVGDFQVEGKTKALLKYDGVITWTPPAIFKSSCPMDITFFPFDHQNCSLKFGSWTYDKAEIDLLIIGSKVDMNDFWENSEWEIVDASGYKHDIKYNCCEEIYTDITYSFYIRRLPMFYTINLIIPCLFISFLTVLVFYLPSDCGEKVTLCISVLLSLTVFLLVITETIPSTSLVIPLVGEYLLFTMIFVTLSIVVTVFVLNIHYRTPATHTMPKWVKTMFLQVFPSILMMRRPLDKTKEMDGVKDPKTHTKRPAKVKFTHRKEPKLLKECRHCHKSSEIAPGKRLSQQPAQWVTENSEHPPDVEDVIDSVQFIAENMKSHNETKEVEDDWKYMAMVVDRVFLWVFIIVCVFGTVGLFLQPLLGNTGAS

Format in all cases: cell-based
Conditions in all cases: Oocyte

Experiment [1] deals with T1, Nicotinic acetylcholine receptor alpha6/alpha3/beta4 (Homo sapiens, UniProt P30926+P32297+Q15825). Kind of experiment: Inhibition of human alpha6/alpha3beta4 nAChR expressed in Xenopus laevis oocytes assessed as inhibition of acetylcholine-induced current response by measuring fold change measured after 5 min by two-electrode voltage-clamp method relative to peIA. For orientation: Two-electrode voltage clamp holds a large cell at a set potential and records current.

The target in experiment [2] is T2, Nicotinic acetylcholine receptor alpha6/alpha3/beta4 (Rattus norvegicus) (UniProt P04757+P12392+P43143). In words: Inhibition of rat alpha6/alpha3beta4 nAChR expressed in Xenopus laevis oocytes assessed as inhibition of acetylcholine-induced current response measured after 5 min by two-electrode voltage-clamp method relative to peIA.
Experiment [3] addresses T2, Nicotinic acetylcholine receptor alpha6/alpha3/beta4 (Rattus norvegicus). Kind of experiment: Inhibition of rat alpha6/alpha3beta4 nAChR expressed in Xenopus laevis oocytes assessed as inhibition of acetylcholine-induced current response by measuring fold change measured after 5 min by two-electrode voltage-clamp method relative to peIA.
Experiment [4] concerns the target T1, Nicotinic acetylcholine receptor alpha6/alpha3/beta4. In words: Inhibition of human alpha6/alpha3beta4 nAChR expressed in Xenopus laevis oocytes assessed as inhibition of acetylcholine-induced current response measured after 5 min by two-electrode voltage-clamp relative to peIA.

Turning to `CC(C)C[C@@H]1NC(=O)[C@H](CCC(=O)O)NC(=O)[C@H](CO)NC(=O)[C@H](Cc2cnc[nH]2)NC(=O)[C@H](CC(N)=O)NC(=O)[C@H](C(C)C)NC(=O)[C@H](CO)NC(=O)[C@@H]2CSSC[C@H](NC(=O)CN)C(=O)N[C@@H](CSSC[C@@H](C(N)=O)NC1=O)C(=O)N[C@@H](CO)C(=O)N[C@@H](Cc1cnc[nH]1)C(=O)N1CCC[C@H]1C(=O)N[C@@H](C)C(=O)N2`, the values for the fold change (FC) in experiment [1] and in experiment [3] were 3 and less than 3, respectively. Further, the deltalogIC50 in experiment [2] was -0.1; in experiment [4], 0.5.

`CC(C)C[C@@H]1NC(=O)[C@H](CCC(=O)O)NC(=O)[C@@H]2CCCN2C(=O)[C@H](Cc2cnc[nH]2)NC(=O)[C@H](CCCNC(=N)N)NC(=O)[C@H](C(C)C)NC(=O)[C@H](CC(N)=O)NC(=O)[C@@H]2CSSC[C@H](NC(=O)CN)C(=O)N[C@@H](CSSC[C@@H](C(N)=O)NC1=O)C(=O)N[C@@H](CO)C(=O)N[C@@H](Cc1cnc[nH]1)C(=O)N1CCC[C@H]1C(=O)N[C@@H](C(C)C)C(=O)N2`: the fold change (FC) in experiment [1] is 16; in experiment [3], 43. Further, the values for the deltalogIC50 in experiment [2] and in experiment [4] were -1.9 and -1.4, respectively.

Regarding `CC(C)C[C@@H]1NC(=O)[C@H](CCCNC(=N)N)NC(=O)[C@@H]2CCCN2C(=O)[C@H](Cc2cnc[nH]2)NC(=O)[C@H](CC(N)=O)NC(=O)[C@H](C(C)C)NC(=O)[C@H](CO)NC(=O)[C@@H]2CSSC[C@H](NC(=O)CN)C(=O)N[C@@H](CSSC[C@@H](C(N)=O)NC1=O)C(=O)N[C@@H](CO)C(=O)N[C@@H](Cc1cnc[nH]1)C(=O)N1CCC[C@H]1C(=O)N[C@@H](C)C(=O)N2`, the fold change (FC) in experiment [1] worked out at 7; in experiment [3], 3. Also, the deltalogIC50 in experiment [2] and in experiment [4] was 0.9 each time.

`CCCC[C@@H]1NC(=O)[C@H](CCC(=O)O)NC(=O)[C@@H]2CCCN2C(=O)[C@H](Cc2cnc[nH]2)NC(=O)[C@H](CC(N)=O)NC(=O)[C@H](C(C)C)NC(=O)[C@H](CO)NC(=O)[C@@H]2CSSC[C@H](NC(=O)CN)C(=O)N[C@@H](CSSC[C@@H](C(N)=O)NC1=O)C(=O)N[C@@H](CO)C(=O)N[C@@H](Cc1cnc[nH]1)C(=O)N1CCC[C@H]1C(=O)N[C@@H](C)C(=O)N2`: the figures for the fold change (FC) in experiment [1] and in experiment [3] were 3 and less than 3, respectively. For the same compound, the deltalogIC50 in experiment [2] is 0.3; in experiment [4] it was 0.5.

For `CC(C)C[C@@H]1NC(=O)[C@H](CCC(=O)O)NC(=O)[C@@H]2CCCN2C(=O)[C@H](Cc2cnc[nH]2)NC(=O)[C@H](C)NC(=O)[C@H](C(C)C)NC(=O)[C@H](CO)NC(=O)[C@@H]2CSSC[C@H](NC(=O)CN)C(=O)N[C@@H](CSSC[C@@H](C(N)=O)NC1=O)C(=O)N[C@@H](CO)C(=O)N[C@@H](Cc1cnc[nH]1)C(=O)N1CCC[C@H]1C(=O)N[C@@H](C)C(=O)N2`, in experiment [1], the fold change (FC) is less than 3. Also, the deltalogIC50 in experiment [2] is -0.4; in experiment [4] it was 0.2.

For the compound `CC(C)C[C@@H]1NC(=O)[C@H](CCC(N)=O)NC(=O)[C@@H]2CCCN2C(=O)[C@H](Cc2cnc[nH]2)NC(=O)[C@H](CC(N)=O)NC(=O)[C@H](C(C)C)NC(=O)[C@H](CO)NC(=O)[C@@H]2CSSC[C@H](NC(=O)CN)C(=O)N[C@@H](CSSC[C@@H](C(N)=O)NC1=O)C(=O)N[C@@H](CO)C(=O)N[C@@H](Cc1cnc[nH]1)C(=O)N1CCC[C@H]1C(=O)N[C@@H](C)C(=O)N2`, the results for the fold change (FC) in experiment [1] and in experiment [3] were less than 2 and less than 3, respectively. Further, the deltalogIC50 in experiment [2] came out at 0.1; in experiment [4], 0.3.

With `CC(C)C[C@@H]1NC(=O)[C@H](CCC(=O)O)NC(=O)[C@@H]2CCCN2C(=O)[C@H](Cc2cnc[nH]2)NC(=O)[C@H](CCCCN)NC(=O)[C@H](C(C)C)NC(=O)[C@H](CO)NC(=O)[C@@H]2CSSC[C@H](NC(=O)CN)C(=O)N[C@@H](CSSC[C@@H](C(N)=O)NC1=O)C(=O)N[C@@H](CO)C(=O)N[C@@H](Cc1cnc[nH]1)C(=O)N1CCC[C@H]1C(=O)N[C@@H](C)C(=O)N2`, the fold change (FC) in experiment [1] is 3; in experiment [3], 5. Besides, the results for the deltalogIC50 in experiment [2] and in experiment [4] were -0.5 and -0.7, respectively.

In the case of `CC(C)C[C@@H]1NC(=O)[C@H](CCC(=O)O)NC(=O)[C@@H]2CCCN2C(=O)[C@H](Cc2cnc[nH]2)NC(=O)[C@H](CC(N)=O)NC(=O)[C@H](C(C)C)NC(=O)[C@H]([C@@H](C)O)NC(=O)[C@@H]2CSSC[C@H](NC(=O)CN)C(=O)N[C@@H](CSSC[C@@H](C(N)=O)NC1=O)C(=O)N[C@@H](CO)C(=O)N[C@@H](Cc1cnc[nH]1)C(=O)N1CCC[C@H]1C(=O)N[C@@H](C)C(=O)N2`, in experiment [1], the fold change (FC) came out at 3. In addition, the deltalogIC50 in experiment [2] is -0.1; in experiment [4], -0.5.

As for `CC(C)C[C@@H]1NC(=O)[C@H](C)NC(=O)[C@@H]2CCCN2C(=O)[C@H](Cc2cnc[nH]2)NC(=O)[C@H](CCCNC(=N)N)NC(=O)[C@H](C)NC(=O)[C@H](CCCNC(=N)N)NC(=O)[C@@H]2CSSC[C@H](NC(=O)CN)C(=O)N[C@@H](CSSC[C@@H](C(N)=O)NC1=O)C(=O)N[C@@H](CO)C(=O)N[C@@H](Cc1cnc[nH]1)C(=O)N1CCC[C@H]1C(=O)N[C@@H](C(C)C)C(=O)N2`, the values for the fold change (FC) in experiment [1] and in experiment [3] were 8 and 73, respectively. Also, the deltalogIC50 came to 1.9 in experiment [2] and 0.9 in experiment [4].

Turning to `CC(C)C[C@@H]1NC(=O)C(CCCCCC(=O)O)NC(=O)[C@@H]2CCCN2C(=O)[C@H](Cc2cnc[nH]2)NC(=O)[C@H](CC(N)=O)NC(=O)[C@H](C(C)C)NC(=O)[C@H](CO)NC(=O)[C@@H]2CSSC[C@H](NC(=O)CN)C(=O)N[C@@H](CSSC[C@@H](C(N)=O)NC1=O)C(=O)N[C@@H](CO)C(=O)N[C@@H](Cc1cnc[nH]1)C(=O)N1CCC[C@H]1C(=O)N[C@@H](C)C(=O)N2` (some centres undefined), the figures for the fold change (FC) in experiment [1] and in experiment [3] were 15 and 3, respectively. For the same compound, the deltalogIC50 in experiment [2] amounted to 0.7; in experiment [4], 1.2.

For `CC(C)C[C@@H]1NC(=O)[C@H](CC(C(=O)O)C(=O)O)NC(=O)[C@@H]2CCCN2C(=O)[C@H](Cc2cnc[nH]2)NC(=O)[C@H](CC(N)=O)NC(=O)[C@H](C(C)C)NC(=O)[C@H](CO)NC(=O)[C@@H]2CSSC[C@H](NC(=O)CN)C(=O)N[C@@H](CSSC[C@@H](C(N)=O)NC1=O)C(=O)N[C@@H](CO)C(=O)N[C@@H](Cc1cnc[nH]1)C(=O)N1CCC[C@H]1C(=O)N[C@@H](C)C(=O)N2`, the fold change (FC) in experiment [1] and in experiment [3] was 3 in each case. For the same compound, the deltalogIC50 in experiment [2] is 0.5; in experiment [4], 0.4.

On to `CC(C)[C@@H]1NC(=O)[C@H](CCC(=O)O)NC(=O)[C@@H]2CCCN2C(=O)[C@H](Cc2cnc[nH]2)NC(=O)[C@H](CC(N)=O)NC(=O)[C@H](C(C)C)NC(=O)[C@H](CO)NC(=O)[C@@H]2CSSC[C@H](NC(=O)CN)C(=O)N[C@@H](CSSC[C@@H](C(N)=O)NC1=O)C(=O)N[C@@H](CO)C(=O)N[C@@H](Cc1cnc[nH]1)C(=O)N1CCC[C@H]1C(=O)N[C@@H](C)C(=O)N2`, for which the fold change (FC) in experiment [1] and in experiment [3] was less than 3 each time. Moreover, the deltalogIC50 in experiment [2] is -0.3; in experiment [4], 0.1.

For `CC(C)C[C@@H]1NC(=O)[C@H](CCC(=O)O)NC(=O)[C@@H]2CCCN2C(=O)[C@H](Cc2cnc[nH]2)NC(=O)[C@H](CCCNC(=N)N)NC(=O)[C@H](C(C)C)NC(=O)[C@H](Cc2cnc[nH]2)NC(=O)[C@@H]2CSSC[C@H](NC(=O)CN)C(=O)N[C@@H](CSSC[C@@H](C(N)=O)NC1=O)C(=O)N[C@@H](CO)C(=O)N[C@@H](Cc1cnc[nH]1)C(=O)N1CCC[C@H]1C(=O)N[C@@H](C(C)C)C(=O)N2`, the fold change (FC) in experiment [1] was 16; in experiment [3], 43. Moreover, the deltalogIC50 is -1.9 in experiment [2] and -1.4 in experiment [4].

Regarding `CC(C)C[C@@H]1NC(=O)C(CCCC(=O)O)NC(=O)[C@@H]2CCCN2C(=O)[C@H](Cc2cnc[nH]2)NC(=O)[C@H](CC(N)=O)NC(=O)[C@H](C(C)C)NC(=O)[C@H](CO)NC(=O)[C@@H]2CSSC[C@H](NC(=O)CN)C(=O)N[C@@H](CSSC[C@@H](C(N)=O)NC1=O)C(=O)N[C@@H](CO)C(=O)N[C@@H](Cc1cnc[nH]1)C(=O)N1CCC[C@H]1C(=O)N[C@@H](C)C(=O)N2` (some centres undefined), the fold change (FC) is 9 in experiment [1] and 3 in experiment [3]. In addition, the figures for the deltalogIC50 in experiment [2] and in experiment [4] were 0.8 and 0.9, respectively.

Take `CC(C)C[C@@H]1NC(=O)[C@H](CCC(=O)O)NC(=O)[C@@H]2CCCN2C(=O)[C@H](Cc2cnc[nH]2)NC(=O)[C@H](CC(N)=O)NC(=O)[C@H](C(C)C)NC(=O)[C@H](Cc2ccc(O)cc2)NC(=O)[C@@H]2CSSC[C@H](NC(=O)CN)C(=O)N[C@@H](CSSC[C@@H](C(N)=O)NC1=O)C(=O)N[C@@H](CO)C(=O)N[C@@H](Cc1cnc[nH]1)C(=O)N1CCC[C@H]1C(=O)N[C@@H](C)C(=O)N2`: in experiment [1], the fold change (FC) came out at 5. Further, the deltalogIC50 in experiment [2] is -0.2; in experiment [4], 0.7.

For `CC(C)C[C@@H]1NC(=O)[C@H](CCC(=O)O)NC(=O)[C@@H]2CCCN2C(=O)[C@H](Cc2cnc[nH]2)NC(=O)[C@H](CC(N)=O)NC(=O)[C@H](C(C)C)NC(=O)[C@H](CO)NC(=O)[C@@H]2CSSC[C@H](NC(=O)CN)C(=O)N[C@@H](CSSC[C@@H](C(N)=O)NC1=O)C(=O)N[C@@H](CO)C(=O)N[C@@H](CC(N)=O)C(=O)N1CCC[C@H]1C(=O)N[C@@H](C)C(=O)N2`, the fold change (FC) was 4 in experiment [1] and less than 3 in experiment [3]. Also, the deltalogIC50 in experiment [2] is -0.3; in experiment [4], 0.7.

Consider `CC(C)C[C@@H]1NC(=O)[C@H](CCC(=O)O)NC(=O)[C@@H]2CCCN2C(=O)[C@H](Cc2cnc[nH]2)NC(=O)[C@H](CC(=O)O)NC(=O)[C@H](C(C)C)NC(=O)[C@H](CO)NC(=O)[C@@H]2CSSC[C@H](NC(=O)CN)C(=O)N[C@@H](CSSC[C@@H](C(N)=O)NC1=O)C(=O)N[C@@H](CO)C(=O)N[C@@H](Cc1cnc[nH]1)C(=O)N1CCC[C@H]1C(=O)N[C@@H](C)C(=O)N2`, for which, in experiment [1], the fold change (FC) was found to be 18. Also, the deltalogIC50 is 1.7 in experiment [2] and 1.3 in experiment [4].
